Results of unrelated studies side by side (data: NIAID ChemDB).

All rows: whole-cell or culture tests; agent: HIV-1; read by: RT activity; read-out: EC90

ECn is the concentration giving n% inhibition of infection, replication or growth. An empty or dashed field is not shown. Rows are shuffled and stem from different studies.

compound	strain	changes	cells	result
CCCCCCCCCCCC(=O)Nc1nc(N)nc2c1ncn2[C@H]1CO[C@@H](COP(=O)(N[C@@H](C)C(=O)OCC)Oc2ccccc2)O1	LAV-1	-	PBMC	2.9 µM
CC(=O)O[C@H]1[C@@H](OC(C)=O)[C@@H](CO[Si](c2ccccc2)(c2ccccc2)C(C)(C)C)O[C@@H](O[C@H]2[C@H](OC(C)=O)[C@H]3Sc4c(n(C)c(=O)n(C)c4=O)O[C@H]3O[C@@H]2CO[Si](c2ccccc2)(c2ccccc2)C(C)(C)C)[C@@H]1OC(C)=O	LAI	-	PBMC	331 µM
C/C(=N\NC(=O)CN1c2c(-c3ccccc3)n[nH]c2-c2ccccc2S1(=O)=O)c1ccc([N+](=O)[O-])s1	-	-	PBMC	>100 µM
CCCCCCCCCC(=O)Nc1nc(N)nc2c1ncn2[C@H]1CO[C@@H](COP(=O)(N[C@@H](C)C(=O)OCC)Oc2ccccc2)O1	LAV-1	-	PBMC	9.4 µM
CN1c2c(-c3ccccc3)nn(CC(=O)N/N=C/c3ccc(Br)cc3)c2-c2ccccc2S1(=O)=O	LAV-1	-	PBMC	>100 µM
CC(=O)OC[C@H]1O[C@@H]2Oc3[nH]c(=O)[nH]c(=O)c3S[C@@H]2[C@@H](OC(C)=O)[C@H]1OC(C)=O	LAI	-	PBMC	>100 µM
C/C(=N\NC(=O)CN1c2c(-c3ccccc3)n[nH]c2-c2ccccc2S1(=O)=O)c1ccncc1	-	-	PBMC	>100 µM
CCOC(=O)[C@H](C)NP(=O)(OC[C@@H]1OC[C@H](n2cnc3c(OC)nc(N)nc32)O1)Oc1ccccc1	LAI	-	PBMC	0.02 µM
Cc1cn([C@H]2C[C@H](N=[N+]=[N-])[C@@H](CO)O2)c(=O)[nH]c1=O	BaL	-	PBMC	0.0287 µM
COC(=O)[C@@H](C)NP(=O)(OC[C@@H]1OC[C@H](n2cc(C)c(=O)[nH]c2=O)O1)Oc1ccccc1	LAI	RT-M184V	PBMC	38.6 µM
Nc1nc(=O)n([C@@H]2S[C@H](CO)[C@H]2CO)cc1Cl	xxBRU	-	PBMC	>100 µM
CC(C)(C)OC(=O)N1[C@H](CO)CC(F)(F)[C@@H]1n1cnc2c(Cl)ncnc21	LAI	-	PBMC	>100 µM
Nc1nc2c(ncn2[C@H]2C=C(F)[C@@H](CO)C2)c(=O)[nH]1	LAI	-	PBMC	2.8 µM
COc1ccc(C[C@H](C[C@H](O)[C@H](Cc2ccccc2)NC(=O)OC(C)(C)C)C(=O)N[C@H](C(=O)N[C@@H](Cc2ccccc2)C(=O)N2CCOCC2)C(C)C)c(OC)c1OC	MN	-	MT-2	1 µM
Cc1cn([C@H]2C[C@H](N=[N+]=[N-])[C@@H](CO)O2)c(=O)[nH]c1=O	LAI	-	PBMC	0.12 µM
CCOC(=O)[C@H](C)NP(=O)(OC[C@@H]1OC[C@H](n2cnc3c(N)nc(N)nc32)O1)Oc1ccccc1	LAI	-	PBMC	1.5 µM
C/C(=N\NC(=O)CN1c2c(-c3ccccc3)n[nH]c2-c2ccccc2S1(=O)=O)c1sc(N)nc1C	-	-	PBMC	>100 µM
COCCNC(=O)[C@@H](NC(=O)[C@H](Cc1cc(OC)c(OC)c(OC)c1)C[C@H](O)[C@H](Cc1ccccc1)NC(=O)OC(C)(C)C)C(C)C	MN	-	MT-2	0.3 µM
CC(C)(C)OC(=O)N1[C@H](CO)CC(F)(F)[C@@H]1n1cnc2c(N)ncnc21	LAI	-	PBMC	>100 µM
CCOC(=O)[C@H](C)NP(=O)(OC[C@@H]1OC[C@H](n2cnc3c(NC(C)=O)nc(N)nc32)O1)Oc1ccccc1	LAV-1	-	PBMC	93 µM
C/C(=N\NC(=O)CN1c2c(-c3ccccc3)n[nH]c2-c2ccccc2S1(=O)=O)c1ccc2c(c1)OCCO2	-	-	PBMC	>100 µM
COc1cc(OC)c(C(=O)OCc2nc3ccccc3nc2C)cc1OC	89BZ167	-	PBMC	>100 µM
CC(C)[C@H](NC(=O)[C@H](Cc1ccc2c(c1)OCO2)C[C@H](O)[C@H](Cc1ccccc1)NC(=O)OC(C)(C)C)C(=O)NCCN(C)C	MN	-	MT-2	0.1 µM
C/C(=N\NC(=O)CN1c2c(-c3ccccc3)n[nH]c2-c2ccccc2S1(=O)=O)c1ccc[nH]1	-	-	PBMC	>100 µM
Nc1ncnc2c1ncn2[C@H]1C[C@@H](CO)C=C1F	-	RT-M184V	PBMC	>100 µM
COCCNC(=O)[C@@H](NC(=O)[C@H](Cc1ccc(OC)c(OC)c1OC)C[C@H](O)[C@H](Cc1ccccc1)NC(=O)OC(C)(C)C)C(C)C	MN	-	MT-2	0.03 µM
CCCCCCCC(=O)Nc1nc(N)nc2c1ncn2[C@H]1CO[C@@H](COP(=O)(N[C@@H](C)C(=O)OCC)Oc2ccccc2)O1	LAV-1	-	PBMC	6.6 µM
COc1cc(-c2ccc(Nc3ccccc3C(=O)O)c(OC)c2)ccc1Nc1ccccc1C(=O)O	89BZ167	-	PBMC	2.25 µM
CN(C)c1ccc(/C=N/NC(=O)Cn2nc(-c3ccccc3)c3c2-c2ccccc2S(=O)(=O)N3C)cc1	LAV-1	-	PBMC	>100 µM
Nc1nc2c(ncn2[C@H]2S[C@@H](CO)[C@@H]2CO)c(=O)[nH]1	xxBRU	-	PBMC	>100 µM
Cc1nc2ccccc2nc1COC(=O)c1ccc(O)cc1O	89BZ167	-	PBMC	>100 µM
O=c1ccn([C@H]2S[C@@H](CO)[C@@H]2CO)c(=O)[nH]1	xxBRU	-	PBMC	>100 µM
CCCC(=O)Nc1nc(N)nc2c1ncn2[C@H]1CO[C@@H](COP(=O)(N[C@@H](C)C(=O)OCC)Oc2ccccc2)O1	LAV-1	-	PBMC	15 µM
CCN(CC)C(=O)OC[C@@H]1CN(C(=O)c2ccccc2)CCN1C(=O)C(=O)c1c[nH]c2nccc(OC)c12	LAI	-	PBMC	>125 µM
COCCNC(=O)[C@@H](NC(=O)[C@H](Cc1ccc(O)cc1)C[C@H](O)[C@H](Cc1ccccc1)NC(=O)OC(C)(C)C)C(C)C	MN	-	MT-2	0.3 µM
CC(C)(C)OC(=O)N1[C@H](CO)CC(F)(F)[C@H]1n1ccc(=O)[nH]c1=O	LAI	-	PBMC	>100 µM
COc1cc(OC)cc(C(=O)OCc2nc3ccccc3nc2C)c1	BaL	-	PBMC	>100 µM
CCOc1cc(/C=N/NC(=O)Cn2nc(-c3ccccc3)c3c2-c2ccccc2S(=O)(=O)N3C)ccc1O	LAV-1	-	PBMC	15.5 µM
COC(=O)c1ccc(C(=O)OCc2nc3ccccc3nc2C)cc1	89BZ167	-	PBMC	>100 µM
CN1c2c(-c3ccccc3)nn(CC(=O)N/N=C/c3cccc(Cl)c3)c2-c2ccccc2S1(=O)=O	LAV-1	-	PBMC	>100 µM
CC(C)(C)OC(=O)N1[C@H](CO)CC(F)(F)[C@H]1n1cnc2ncnc(N)c21	LAI	-	PBMC	>100 µM
Nc1nc2c(ncn2[C@@H]2S[C@H](CO)[C@H]2CO)c(=O)[nH]1	xxBRU	-	PBMC	>100 µM
Nc1nc(NC2CC2)c2ncn([C@H]3CO[C@@H](CO)O3)c2n1	LAI	-	PBMC	9.9 µM
COc1ccc(/C=N/NC(=O)Cn2nc(-c3ccccc3)c3c2-c2ccccc2S(=O)(=O)N3C)cc1	LAV-1	-	PBMC	53.9 µM
CCCOCCCNC(=O)[C@@H](NC(=O)[C@H](Cc1ccc(OC)c(OC)c1OC)C[C@H](O)[C@H](Cc1ccccc1)NC(=O)OC(C)(C)C)C(C)C	MN	-	MT-2	0.03 µM
Cc1cn([C@H]2C=C(F)[C@@H](CO)C2)c(=O)[nH]c1=O	LAI	-	PBMC	>100 µM
CC(C)(C)OC(=O)N1[C@H](CO)CC(F)(F)[C@H]1n1cnc2c(N)ncnc21	LAI	-	PBMC	>100 µM
Nc1nc2c(ncn2[C@@H]2OC[C@H](/C=C/P(=O)(O)O)C23CC3)c(=O)[nH]1	LAV-1	-	PBMC	95 µM
C=CCc1cc(-c2ncc(O)cn2)ccc1O	LAV	-	PBMC	>100 µM
COc1ccc(/C=N/NC(=O)Cn2nc(-c3ccccc3)c3c2-c2ccccc2S(=O)(=O)N3C)c(OC)c1	LAV-1	-	PBMC	>100 µM
COC(=O)C(C)(C)NP(=O)(OC[C@@H]1OC[C@H](n2cc(C)c(=O)[nH]c2=O)O1)Oc1ccccc1	LAI	RT-M184V	PBMC	3.3 µM
CCOC(=O)[C@H](C)NP(=O)(OC[C@@H]1OC[C@H](n2cnc3c(N)nc(N)nc32)O1)Oc1ccccc1	LAV-1	-	PBMC	1.5 µM
CC(C)(C)OC(=O)N1[C@H](CO)CC(F)(F)[C@H]1n1cnc2ncnc(Cl)c21	LAI	-	PBMC	>100 µM
Nc1ncnc2c1ncn2[C@@H]1OC[C@H](CCP(=O)(O)O)C12CC2	LAV-1	-	PBMC	80 µM
CCCc1ccc(OP(=O)(N[C@@H](C)C(=O)OC)OC[C@@H]2OC[C@H](n3cc(C)c(=O)[nH]c3=O)O2)cc1	LAI	RT-M184V	PBMC	1.6 µM
COCCNC(=O)[C@@H](NC(=O)[C@H](Cc1ccc(OC)c(OC)c1)C[C@H](O)[C@H](Cc1ccccc1)NC(=O)OC(C)(C)C)C(C)C	MN	-	MT-2	0.1 µM
COc1cc(/C=N/NC(=O)Cn2nc(-c3ccccc3)c3c2-c2ccccc2S(=O)(=O)N3C)cc(OC)c1OC	LAV-1	-	PBMC	>100 µM
C=CCc1ccccc1OP(=O)(N[C@@H](C)C(=O)OC)OC[C@@H]1OC[C@H](n2cc(C)c(=O)[nH]c2=O)O1	LAI	RT-M184V	PBMC	12.9 µM
CC(=O)O[C@@H]1[C@@H](OC(C)=O)[C@H](C)O[C@@H]2Oc3[nH]c(=O)[nH]c(=O)c3S[C@@H]21	LAI	-	PBMC	100 µM

Repeating the first 8 entries:

| compound | strain | changes | cells | result |
|---|---|---|---|---|
| CCCCCCCCCCCC(=O)Nc1nc(N)nc2c1ncn2[C@H]1CO[C@@H](COP(=O)(N[C@@H](C)C(=O)OCC)Oc2ccccc2)O1 | LAV-1 | - | PBMC | 2.9 µM |
| CC(=O)O[C@H]1[C@@H](OC(C)=O)[C@@H](CO[Si](c2ccccc2)(c2ccccc2)C(C)(C)C)O[C@@H](O[C@H]2[C@H](OC(C)=O)[C@H]3Sc4c(n(C)c(=O)n(C)c4=O)O[C@H]3O[C@@H]2CO[Si](c2ccccc2)(c2ccccc2)C(C)(C)C)[C@@H]1OC(C)=O | LAI | - | PBMC | 331 µM |
| C/C(=N\NC(=O)CN1c2c(-c3ccccc3)n[nH]c2-c2ccccc2S1(=O)=O)c1ccc([N+](=O)[O-])s1 | - | - | PBMC | >100 µM |
| CCCCCCCCCC(=O)Nc1nc(N)nc2c1ncn2[C@H]1CO[C@@H](COP(=O)(N[C@@H](C)C(=O)OCC)Oc2ccccc2)O1 | LAV-1 | - | PBMC | 9.4 µM |
| CN1c2c(-c3ccccc3)nn(CC(=O)N/N=C/c3ccc(Br)cc3)c2-c2ccccc2S1(=O)=O | LAV-1 | - | PBMC | >100 µM |
| CC(=O)OC[C@H]1O[C@@H]2Oc3[nH]c(=O)[nH]c(=O)c3S[C@@H]2[C@@H](OC(C)=O)[C@H]1OC(C)=O | LAI | - | PBMC | >100 µM |
| C/C(=N\NC(=O)CN1c2c(-c3ccccc3)n[nH]c2-c2ccccc2S1(=O)=O)c1ccncc1 | - | - | PBMC | >100 µM |
| CCOC(=O)[C@H](C)NP(=O)(OC[C@@H]1OC[C@H](n2cnc3c(OC)nc(N)nc32)O1)Oc1ccccc1 | LAI | - | PBMC | 0.02 µM |